Laboratory results taken from US20240327815A1.

Biological target: spike of live SARS-CoV-2 Beta variant (SARS-CoV-2) (UniProt P0DTC2)
Assay: cell-based or functional assay

## REGEN-COV
  fold decrease of live virus neutralization efficacy, Beta compared to Delta: 2 fold
